Assay: Stilbenoid levels in batch culture of solvent-adapted PALCPR, dodecane/octylacetate two-phase vs control (HPLC)
Set-up: species or system S. cerevisiae
Details: for Supernatant, no ethanol / Supernatant, ethanol: PALCPR-control, no solvent; for Supernatant, ethanol: broth mixed with equal volume of 100% ethanol; for Upper phase (0.3 L) concentration / Lower phase (1 L) concentration / Total produced in 1 L: PALCPR-solvent; for Upper phase (0.3 L) concentration: 200 ml dodecane + 100 ml octylacetate on 1 L medium, at galactose depletion; for Lower phase (1 L) concentration: aqueous medium phase, dodecane/octylacetate; for Total produced in 1 L: upper x 0.3 + lower
Experimental: A Phenomenex (Torrance, Calif., USA) Luna 3 micrometer C18 (100×2.00 mm) column was used at 60° C. As mobile phase a gradient of acetonitrile and milliq water (both containing 50 ppm trifluoroacetic acid) was used at a flow of 0.4 ml/min. The gradient profile was linear from 15% acetonitrile to 100% acetonitrile over 20 min.

Row | Structure (SMILES) | Supernatant, no ethanol [mg/L] | Supernatant, ethanol [mg/L] | Upper phase (0.3 L) concentration [mg/L] | Lower phase (1 L) concentration [mg/L] | Total produced in 1 L [mg/L]
1 | Oc1cc(O)cc(/C=C/c2ccccc2)c1 [Pinosylvin, pinosylvin] | 1.74 | 22.63 | 55.84 | 0.85 | 17.6
2 | O=C(O)C=Cc1ccccc1 [Cinnamic acid, cinnamic acid] | 3.59 | 9.70 | 20.72 | 4.72 | 10.93

From US8518677B2, “Microbial bioreaction process” (Evolva Sa, priority 2007, dated 2013)
